Experiment [1] concerns the target T1, MERS-COV PLpro (Middle East respiratory syndrome-related coronavirus, UniProt K9N7C7, I1717L/K1573G).
Experiment [2] concerns the target T1, MERS-COV PLpro. The conditions noted are these: previously tested; cited from earlier work.
Experiment [3] deals with T1, MERS-COV PLpro. The following applies: previous finding of the applicant; cited from earlier work.
The target in experiment [4] is T1, MERS-COV PLpro. The conditions noted are these: tested here.

Where two headings read alike, the source gives them in different places.

Take `O=c1c(O)c(-c2ccc(O)c(O)c2)oc2cc(O)ccc12`: at MERS-COV PLpro [1] (at IC50 concentration), the “lowering of ΔTm” value came out at 13 °C. Also, the “variation in melting temperature (ΔTm), mean” value on MERS-COV PLpro [1] (mean over various concentrations) came to 13.94 °C. Turning to `COc1cccc2c1C(=O)c1c(O)c3c(c(O)c1C2=O)C[C@@](O)(C(=O)CO)C[C@@H]3O[C@H]1C[C@H](N)[C@H](O)[C@H](C)O1`, the “inhibitory effect against MERS-PLpro (in words)” value (from here on “inhibitory effect”) on MERS-COV PLpro [2] is given as “showed inhibitory effect”. Also, on MERS-COV PLpro [3], the “increase of melting temperature” value is 20 °C.

`CN(C)C(=N)N=C(N)N`: on MERS-COV PLpro [4], the “inhibitory effect” value was “not effective”. The “effect on Tm of MERS-PLpro (in words)” value at MERS-COV PLpro [1] (at any concentration) was “did not alter the Tm”. In the case of `Nc1nc2c(ncn2COCCO)c(=O)[nH]1`, the “inhibitory effect” value on MERS-COV PLpro [2] is reported as “only the former showed inhibitory effect”.
